Holding throughout (assay): DNase I footprinting
The subject of data set [1] is RNA polymerase holoenzyme (Escherichia coli). The following applies: 0.25-5 U RNAP, protects -37 to +17, -43 to -76, -116 to -154; Footprinting: 20 mM Tris-HCl pH 7.9, 50 mM KCl, 10 mM MgCl2, 0.01% NP-40, 10% glycerol, 200 ng salmon sperm DNA, 15 min RT; commercial protein; label: 5'-32P at BamHI end; probe letters rebuilt from the primers and the genome.
Data set [2] addresses RNAP alpha-subunit (UniProt P0A7Z4). The following applies: 0.17-11 uM alpha, TAAA repeats first, then -43 to -76 and -116 to -154; Footprinting: 20 mM Tris-HCl pH 7.9, 50 mM KCl, 10 mM MgCl2, 0.01% NP-40, 10% glycerol, 200 ng salmon sperm DNA, 15 min RT; recombinant protein; protein details: N-terminal His (pHTT7f1-NHalpha); label: 5'-32P at BamHI end; probe letters rebuilt from the primers and the genome.

For data set [3], the target named is NadR (NMB1843), recombinant (Neisseria meningitidis MC58) (UniProt Q7DD70). The following applies: OpI and OpII protected from 30 nM dimer, OpIII -55 to -85 also protected; Footprinting: 20 mM Tris-HCl pH 7.9, 50 mM KCl, 10 mM MgCl2, 0.01% NP-40, 10% glycerol, 200 ng salmon sperm DNA, 15 min RT; recombinant protein; protein details: N-terminal His (pET15b); label: 5'-32P at BamHI end; probe letters rebuilt from the primers and the genome.

We go through 2 sequences from article PMC2791445, “A Novel Phase Variation Mechanism in the Meningococcus Driven by a Ligand-Responsive Repressor and Differential Spacing of Distal Promoter Elements” (PLoS Pathogens, 2009).

Construct, isoform or probe ends are uncertain for at least one entry.

Regarding “TGACGTCGACGTCCTCGATTACGAAGGCAAAAAATTGGTTATCCACCATATCTAAATCCGACAAAAAGGCCGTCTGAACATTCAGACGGCAACCCATATCCTGACAAAATTAAGACACGACACCGGCAGAATTGACATCAGCATAATATGCACATATTAACAGATATTAATGCCGAACTACCTAACTGCAAGAATTAAATAAATAAATAAATAAATAAATAAATAAATAAATTGCGACAATGTATTGTATATATGCCTCCTTTCATATATACTTTAATATGTAAACAAACTTGGTGGGGATAAAATACTTACAAAAGATTTCCGCCCCATTTTTTATCCACTCACAAAGGTAATGAGCGTAG / GATCCTACGCTCATTACCTTTGTGAGTGGATAAAAAATGGGGCGGAAATCTTTTGTAAGTATTTTATCCCCACCAAGTTTGTTTACATATTAAAGTATATATGAAAGGAGGCATATATACAATACATTGTCGCAATTTATTTATTTATTTATTTATTTATTTATTTATTTAATTCTTGCAGTTAGGTAGTTCGGCATTAATATCTGTTAATATGTGCATATTATGCTGATGTCAATTCTGCCGGTGTCGTGTCTTAATTTTGTCAGGATATGGGTTGCCGTCTGAATGTTCAGACGGCCTTTTTGTCGGATTTAGATATGGTGGATAACCAATTTTTTGCCTTCGTAATCGAGGACGTCGACGTCATGCA [PnadA footprint probe for RNAP (repeat number not in text)]”, the binding result in data set [1] and in data set [2] was “binds” each time. Regarding “TGACGTCGACGTCCTCGATTACGAAGGCAAAAAATTGGTTATCCACCATATCTAAATCCGACAAAAAGGCCGTCTGAACATTCAGACGGCAACCCATATCCTGACAAAATTAAGACACGACACCGGCAGAATTGACATCAGCATAATATGCACATATTAACAGATATTAATGCCGAACTACCTAACTGCAAGAATTAAATAAATAAATAAATAAATAAATAAATAAATAAATTGCGACAATGTATTGTATATATGCCTCCTTTCATATATACTTTAATATGTAAACAAACTTGGTGGGGATAAAATACTTACAAAAGATTTCCGCCCCATTTTTTATCCACTCACAAAGGTAATGAGCGTAG / GATCCTACGCTCATTACCTTTGTGAGTGGATAAAAAATGGGGCGGAAATCTTTTGTAAGTATTTTATCCCCACCAAGTTTGTTTACATATTAAAGTATATATGAAAGGAGGCATATATACAATACATTGTCGCAATTTATTTATTTATTTATTTATTTATTTATTTATTTAATTCTTGCAGTTAGGTAGTTCGGCATTAATATCTGTTAATATGTGCATATTATGCTGATGTCAATTCTGCCGGTGTCGTGTCTTAATTTTGTCAGGATATGGGTTGCCGTCTGAATGTTCAGACGGCCTTTTTGTCGGATTTAGATATGGTGGATAACCAATTTTTTGCCTTCGTAATCGAGGACGTCGACGTCATGCA [PnadA, 9 TAAA repeats]”, in data set [3], the binding result is “binds”.
